This passage reports spores germinated results from patent publication US20080254010A1, “Controlling Clostridium difficile-Associated Disease in the Gastrointestinal Tract” (priority 2007, published 2008).

The subject of this experiment is Clostridium difficile(ATCC 9689) spores. Particulars: 17 hours after treatment; 15 μg/mL L-alanine (D-alanine at equal concentration where combined); water-agar.

SMILES strings stand for the structures.

Regarding `C[C@H](N)C(=O)O` [L-alanine], the spores germinated result is on record as “approximately 79%”.
